Measurements as given in article PMC4909209, “Escherichia coli Protein Expression System for Acetylcholine Binding Proteins (AChBPs)” (2016).

Columns and labels:
[1] = target: ubiquitin tagged Ac-AChBP (Aplysia californica acetylcholine binding protein) (Aplysia californica)
[2] = target: de-tagged Ls-AChBP (Lymnaea stagnalis acetylcholine binding protein) (Lymnaea stagnalis) (UniProt P58154)

Substance: alpha-conotoxin PnIA (A10L) (peptide)
- Ki [1]: 2.8 nM
- Ki [2]: 2000 nM
